Measured values taken from US9617289B2, “RSV antiviral compounds” (JANSSEN R&D IRELAND, priority 2012, dated 2017).
Some results come without the dose or concentration used.

Tested on: HeLa cells
Test: Cytotoxicity in HeLa cells (ATP content, ATPlite kit); SI calculated as CC50/EC50
Assay type: cell-based
Conditions: SI is calculated as CC50/EC50, three days

Row | Structure (SMILES) | SI | SI_TOX-HELA_wt
1 | CS(=O)(=O)CCCn1c(CN2C(=O)C3(CCN(S(C)(=O)=O)CC3)c3ccncc32)cc2cc(Cl)ccc21 [Compound 3, 1′-({5-chloro-1-[3-(methylsulfonyl)propyl]-1H-indol-2-yl}methyl)-1-(methylsulfonyl)spiro[piperidine-4,3′-pyrrolo[2,3-c]pyridin]-2′(1′H)-one] | >3.237e+006 | –
2 | CS(=O)(=O)CCCn1c(CN2C(=O)C3(CN(S(=O)(=O)c4ccc(F)cc4)C3)c3ccccc32)nc2cc(Cl)ccc21 [Compound 33, 1′-({5-chloro-1-[3-(methylsulfonyl)propyl]-1H-benzimidazol-2-yl}methyl)-1-[(4-fluorophenyl)-sulfonyl]spiro[azetidine-3,3′-indol]-2′(1′H)-one] | >563300 | –
3 | N#CCCCn1c(CN2C(=O)C3(CCN(C(=O)OC4CCC4)CC3)c3ccncc32)cc2cc(Cl)ccc21 [Compound 103, Cyclobutyl 1′-{[5-chloro-1-(3-cyanopropyl)-1H-indol-2-yl]-methyl}-2′-oxo-1′,2′-dihydro-1H-spiro[piperidine-4,3′-pyrrolo[2,3-c]pyridine]-1-carboxylate] | – | 76392
4 | CC(C)(C)OC(=O)N1CC2(C1)C(=O)N(Cc1cc3cc(Cl)ccc3n1CCCC#N)c1ccccc12 [Compound 58, tert-butyl 1′-{[5-chloro-1-(3-cyanopropyl)-1H-indol-2-yl]-methyl}-2′-oxo-1′,2′-dihydro-1H-spiro[azetidine-3,3′-indole]-1-carboxylate] | >386305 | –
5 | CC(C)(C)OC(=O)N1CC2(C1)C(=O)N(Cc1cc3cc(Cl)ccc3n1CCCS(C)(=O)=O)c1ccccc12 [Compound 163, tert-Butyl 1′-({5-chloro-1-[3-(methylsulfonyl)propyl]-1H-indol-2-yl}methyl)-2′-oxo-1′,2′-dihydro-1H-spiro[azetidine-3,3′-indole]-1-carboxylate] | – | 95825
6 | N#CCCCn1c(CN2C(=O)C3(CNC3)c3ccccc32)nc2cc(Cl)ccc21 [Compound 101, 4-{5-Chloro-2-[(2′-oxospiro[azetidine-3,3′-indol]-1′(2′H)-yl)methyl]-1H-benzimidazol-1-yl}butanenitrile] | – | >111491
7 | O=C1N(Cc2nc3cc(Cl)ccc3n2CCCC(F)(F)F)c2ccccc2C12CNC2 [Compound 46, 1′-((5-chloro-1-(4,4,4-trifluorobutyl)-1H-benzo[d]imidazol-2-yl)methyl)spiro[azetidine-3,3-indolin]-2′-one] | >155253 | –
8 | CC(C)(O)C(=O)N1CCC2(CC1)C(=O)N(Cc1cc3cc(Cl)ccc3n1CCCS(C)(=O)=O)c1cnccc12 [Compound 74, 1′-((5-chloro-1-(3-(methylsulfonyl)propyl)-1H-indol-2-yl)-methyl)-1-(2-hydroxy-2-methylpropanoyl)spiro[piperidine-4,3′-pyrrolo[2,3-c]pyridin]-2′(1′H)-one] | 342437 | –
9 | CS(=O)(=O)CCCn1c(CN2C(=O)C3(CCOCC3)c3ccncc32)nc2cc(Cl)ccc21 [Compound 38, 1′-((5-chloro-1-(3-(methylsulfonyl)propyl)-1H-benzo[d]-imidazol-2-yl)methyl)-2,3,5,6-tetrahydrospiro[pyran-4,3′-pyrrolo[2,3-c]pyridin]-2′(1′H)-one] | >571387 | –
10 | N#CCCCn1c(CN2C(=O)C3(CCN(S(=O)(=O)C4CC4)CC3)c3ccncc32)cc2cc(Cl)ccc21 [Compound 81, 4-(5-chloro-2-((1-(cyclopropylsulfonyl)-2′-oxospiro-[piperidine-4,3′-pyrrolo[2,3-c]pyridin]-1′(2′H)-yl)methyl)-1H-indol-1-yl)butanenitrile] | >655360 | –
11 | CC(=O)N1CC2(C1)C(=O)N(Cc1cc3cc(Cl)ccc3n1CCCC#N)c1ccccc12 [Compound 62, 4-{2-[(1-acetyl-2′-oxospiro[azetidine-3,3′-indol]-1′(2′H)-yl)-methyl]-5-chloro-1H-indol-l-yl}butanenitrile] | 46732 | –
12 | N#CCCCn1c(CN2C(=O)C3(CCN(S(=O)(=O)C4CC4)CC3)c3ccncc32)nc2cc(Cl)ccc21 [Compound 112, 4-(5-Chloro-2-{[1-(cyclopropylsulfonyl)-2′-oxospiro-[piperidine-4,3′-pyrrolo[2,3-c]pyridin]-1′(2′H)-yl]methyl}-1H-benzimidazol-1-yl)butanenitrile] | – | >3.969e+006
13 | CS(=O)(=O)CCCn1c(CN2C(=O)C3(CCN(S(=O)(=O)c4cccs4)CC3)c3ccccc32)nc2cc(Cl)ccc21 [Compound 102] | – | >68433.7
14 | CC(=O)N[C@H]1C[C@@]2(C1)C(=O)N(Cc1nc3cc(Cl)ccc3n1CCCC#N)c1ccccc12 [Compound 146, N-((1r,3r)-1′-((5-chloro-1-(3-cyanopropyl)-1H-benzo[d]imidazol-2-yl)methyl)-2′-oxospiro[cyclobutane-1,3′-indolin]-3-yl)acetamide] | – | >198577
15 | CC(=O)OCCOC(=O)N1CCC2(CC1)C(=O)N(Cc1cc3cc(Cl)ccc3n1CCCC#N)c1cnccc12 [Compound 150, 2-(Acetyloxy)ethyl 1′-{[5-chloro-1-(3-cyanopropyl)-1H-indol-2-yl]methyl}-2′-oxo-1′,2′-dihydro-1H-spiro[piperidine-4,3′-pyrrolo-[2,3-c]pyridine]-1-carboxylate] | – | 862700
16 | N#CCCCn1c(CN2C(=O)C3(CN(C(=O)OC4COC4)C3)c3ccccc32)nc2cc(Cl)ccc21 [Compound 92, Oxetan-3-yl 1′-{[5-chloro-1-(3-cyanopropyl)-1H-benzimidazol-2-yl]methyl}-2′-oxo-1′,2′-dihydro-1H-spiro[azetidine-3,3′-indole]-1-carboxylate] | – | >1.435e+006
17 | CC(=O)NS(=O)(=O)N1CC2(C1)C(=O)N(Cc1cc3cc(Cl)ccc3n1CCCC#N)c1ccccc12 [Compound 117, N-[(1′-{[5-Chloro-1-(3-cyanopropyl)-1H-indol-2-yl]methyl}-2′-oxo-1′,2′-dihydro-1H-spiro[azetidine-3,3′-indol]-1-yl)sulfonyl]acetamide] | – | 6595
18 | CS(=O)(=O)CCCn1c(CN2C(=O)C3(CCNCC3)c3ccncc32)cc2cc(Cl)ccc21 [Compound 2, 1′-({5-chloro-1-[3-(methylsulfonyl)propyl]-1H-indol-2-yl}methyl)spiro[piperidine-4,3′-pyrrolo[2,3-c]pyridin]-2′(1′H)-one] | >2193.76 | –
19 | CS(=O)(=O)N1CCC2(CC1)C(=O)N(Cc1cc3cc(Cl)ccc3n1CCCC#N)c1cnccc12 [Compound 105, 4-(5-Chloro-2-{[1-(methylsulfonyl)-2′-oxospiro[piperidine-4,3′-pyrrolo[2,3-c]pyridin]-1′(2′H)-yl]methyl}-1H-indol-1-yl)butanenitrile] | – | 895262
20 | N#CCCCn1c(CN2C(=O)C3(CCN(C(=O)OC4COC4)CC3)c3ccncc32)nc2cc(Cl)ccc21 [Compound 82, oxetan-3-yl 1′-((5-chloro-1-(3-cyanopropyl)-1H-benzo[d]-imidazol-2-yl)methyl)-2′-oxo-1′,2′-dihydrospiro[piperidine-4,3′-pyrrolo[2,3-c]pyridine]-1-carboxylate] | >655360 | –
21 | CC(=O)N1CC2(C1)C(=O)N(Cc1nc3cc(Cl)ccc3n1CCCS(C)(=O)=O)c1ccccc12 [Compound 72, 1-acetyl-1′-((5-chloro-1-(3-(methylsulfonyl)propyl)-1H-benzo[d]imidazol-2-yl)methyl)spiro[azetidine-3,3′-indolin]-2′-one] | >405070 | –
